The assay deals with HLA-A2402 (Homo sapiens, UniProt P04439, D101N/D140Y/D185E/E176V/E190D/F33S/G103R/G107R/I119L/I121M/I306V/K335N/L105A/L180Q/L300P/N151K/N90K/Q86E/Q94H/R106L/R138H/R89G/T104I/T345S/V100E/W191G/Y123F). Put plainly: cell-based. It counts as binding.

In turn, `CC[C@H](C)[C@H](NC(=O)[C@H](CO)NC(=O)[C@@H]1CCCN1C(=O)[C@@H](NC(=O)[C@@H](NC(=O)[C@H](Cc1ccccc1)NC(=O)[C@H](C)NC(=O)[C@@H](NC(=O)[C@H](Cc1ccc(O)cc1)NC(=O)[C@@H](N)CCCCN)[C@@H](C)O)[C@@H](C)O)[C@@H](C)CC)C(=O)O` [Peptide P65] yielded an IC50 of less than 5 µM. Further, under “24 h, read-out: 5-μM inhibition (%)”, the inhibition at 5 µM was found to be 93.1%. For the same compound, under “24 h, read-out: 15-μM inhibition (%)”, the inhibition at 15 µM is 97.8%.

Broadly, the IC50 is the concentration at which inhibition is half-maximal. As a reminder, the inhibition is the relative decrease from the control value, in per cent.

These data come from PMC11850406, “Large-scale screening of HIV-1 T-cell epitopes restricted by 12 prevalent HLA-A allotypes in Northeast Asia and universal detection of HIV-1-specific CD8^+ T cells” (Frontiers in Microbiology, 2025).
